Compound potency records, mixed from different reports. Data source: NIAID ChemDB in PubChem.

Common to all: tests in culture; species: Cryptosporidium parvum

Neighbouring rows are from separate reports. An empty or dashed field is not shown. ECn is the concentration giving n% inhibition of infection, replication or growth.

O=[N+]([O-])c1cc(C(F)(F)F)cc([N+](=O)[O-])c1N1CCCCC1 ; cell line: MDCK cells ; read by: ELISA / luminescence ; read-out: EC50 ; value: 2.1 µM
CCCC(CCCl)c1c([N+](=O)[O-])cc(C(F)(F)F)cc1[N+](=O)[O-] ; read-out: EC50 ; value: 1.81 µM
CC[C@H]1OC(=O)[C@H](C)[C@@H](O[C@H]2C[C@@](C)(OC)[C@@H](O)[C@H](C)O2)[C@H](C)[C@@H](O[C@@H]2O[C@H](C)C[C@H](N(C)C)[C@H]2O)[C@](C)(OC)C[C@@H](C)C(=O)[C@H](C)[C@@H](O)[C@]1(C)O ; read by: cell count ; read-out: EC50 ; value: >50 µM
CO[C@@H]1[C@@H](OC)[C@H](C)[C@@](O)(CC(=O)O)O[C@H]1[C@H](C)[C@H]1O[C@@]2(CC[C@@](C)([C@H]3CC[C@@](C)([C@@H]4O[C@@H]([C@H]5O[C@](C)(O)[C@H](C)C[C@@H]5C)C[C@@H]4O[C@@H]4C[C@H](OC)[C@@H](OC)[C@H](C)O4)O3)O2)C[C@H](O)[C@H]1C ; cell line: MDCK ; read by: antigen ; read-out: EC50 ; strain: Iowa bovine isolate ; value: 0.29 µM
CCCN(CCC)c1c([N+](=O)[O-])cc(C(F)(F)F)cc1[N+](=O)[O-] ; cell line: MDCK cells ; read by: ELISA / luminescence ; read-out: EC50 ; value: 0.13 µM
CCC(CC)Nc1c([N+](=O)[O-])cc(C)c(C)c1[N+](=O)[O-] ; read-out: EC50 ; value: 0.19 µM
NS(=O)(=O)c1cc([N+](=O)[O-])c(N2COC2)c([N+](=O)[O-])c1 ; cell line: MDCK cells ; read by: ELISA / luminescence ; read-out: EC50 ; value: 0.46 µM
CC[C@@H](C(=O)[C@@H](C)[C@@H](O)[C@H](C)CCc1ccc(C)c(O)c1C(=O)O)[C@H]1O[C@](CC)([C@H]2CC[C@](O)(CC)[C@H](C)O2)C[C@@H]1C ; cell line: HCT-8 ; read-out: EC50 ; value: <1 µM
CCCc1ncc(C[n+]2ccccc2C)c(N)n1 ; cell line: L929 ; read-out: EC50 ; strain: Calf isolate ; value: >4 µg/mL
COc1cc([C@H]2Oc3cc([C@H]4Oc5cc(O)cc(O)c5C(=O)[C@@H]4O)ccc3O[C@@H]2CO)ccc1O ; cell line: HCT-8 ; read-out: EC50 ; value: 15 µM
CC1NC(=O)C(C)NC(=O)C2CCCN2C(=O)C(CCCCCC(=O)CCO)NC1=O ; read-out: MIC ; value: >1 µg/mL
CC[C@@]1([C@@H]2O[C@@H]([C@H]3O[C@@](O)(CO)[C@H](C)C[C@@H]3C)C[C@@H]2C)CC[C@H]([C@]2(C)CC[C@]3(C[C@H](O)[C@@H](C)[C@@H]([C@@H](C)[C@@H](OC)[C@H](C)C(=O)O)O3)O2)O1 ; cell line: L929 ; read-out: EC50 ; strain: Calf isolate ; value: <0.8 µg/mL
CC[C@@]1([C@@H]2O[C@@H]([C@H]3O[C@@](O)(CO)[C@H](C)C[C@@H]3C)C[C@@H]2C)CC[C@H]([C@]2(C)CC[C@]3(C[C@H](O)[C@@H](C)[C@@H]([C@@H](C)[C@@H](OC)[C@H](C)C(=O)O)O3)O2)O1 ; cell line: HCT-8 ; read-out: EC50 ; value: <1 µM
CCC(=O)CCCCC[C@@H]1NC(=O)[C@H]2CCCCN2C(=O)[C@H](C(C)CC)NC(=O)[C@H](Cc2c[nH]c3ccccc23)NC1=O ; read-out: MIC ; value: 0.07 µg/mL
O=S(=O)(F)Cc1ccccc1 ; read-out: EC50 ; value: >2000 µM
CC(=O)Oc1ccc(C)cc1C(=O)Nc1ncc(Cl)s1 ; read-out: EC50 ; value: 0.8 µg/mL
CC(C)N=C(N)/N=C(\N)Nc1ccc(Cl)cc1 ; cell line: L929 ; read-out: EC50 ; strain: Calf isolate ; value: <20 µg/mL
CO[C@H]1/C=C/O[C@@]2(C)Oc3c(C)c(O)c4c(O)c(c5c(c4c3C2=O)NC2(CCN(CC(C)C)CC2)N=5)=NC(=O)/C(C)=C\C=C\[C@H](C)[C@H](O)[C@@H](C)[C@@H](O)[C@@H](C)[C@H](OC(C)=O)[C@@H]1C ; read by: cell count ; read-out: EC50 ; value: >50 µM
C[C@@H]1O[C@@H](OC[C@H]2O[C@@H](Oc3c(-c4ccc(O)c(O)c4)oc4cc(O)cc(O)c4c3=O)[C@H](O)[C@@H](O)[C@@H]2O)[C@H](O)[C@H](O)[C@H]1O ; cell line: HCT-8 ; read-out: EC50 ; value: >100 µM
CCN(CC)CCCC(C)Nc1ccnc2cc(Cl)ccc12 ; cell line: L929 ; read-out: EC50 ; strain: Calf isolate ; value: >20 µg/mL
C[C@H]1c2cccc(O)c2C(O)=C2C(=O)[C@]3(O)C(O)=C(C(N)=O)C(=O)[C@@H](N(C)C)[C@@H]3[C@@H](O)[C@@H]21 ; cell line: HCT-8 ; read-out: EC50 ; value: >1 µM
O=c1c(O)c(-c2ccccc2)oc2cc(O)cc(O)c12 ; cell line: HCT-8 ; read-out: EC50 ; value: >100 µM
O=S(=O)(F)Cc1ccccc1 ; read by: cell count / microscopy ; read-out: EC50 ; value: >2000 µM
C[C@H]1[C@H](O)[C@@H](C)/C=C/C=C/C=C/C=C/C=C/C=C/C=C/[C@H](O[C@@H]2O[C@H](C)[C@@H](O)[C@H](N)[C@@H]2O)C[C@@H]2O[C@](O)(C[C@@H](O)C[C@@H](O)CC[C@H](O)[C@@H](O)C[C@@H](O)CC(=O)O[C@H]1C)C[C@H](O)[C@H]2C(=O)O ; cell line: L929 ; read-out: EC50 ; strain: Calf isolate ; value: >20 µg/mL
CO[C@@H]1[C@@H](OC)[C@H](C)[C@@](O)(CC(=O)O)O[C@H]1[C@H](C)[C@H]1O[C@@]2(CC[C@@](C)([C@H]3CC[C@@](C)([C@@H]4O[C@@H]([C@H]5O[C@](C)(O)[C@H](C)C[C@@H]5C)C[C@@H]4O[C@@H]4C[C@H](OC)[C@@H](OC)[C@H](C)O4)O3)O2)C[C@H](O)[C@H]1C ; read-out: EC50 ; value: <0.5 µg/mL
Nc1ccc(S(=O)(=O)Nc2cnc3ccccc3n2)cc1 ; cell line: L929 ; read-out: EC50 ; strain: Human isolate ; value: <0.8 µg/mL
CCCN(CCC)c1c([N+](=O)[O-])cc(C(F)(F)F)cc1[N+](=O)[O-] ; cell line: HCT-8 ; read-out: EC50 ; value: <1 µM

A second listing of 3 rows from above:

structure,cell line,read by,read-out,strain,value
CCN(CC)CCCC(C)Nc1ccnc2cc(Cl)ccc12,L929,-,EC50,Calf isolate,>20 µg/mL
Nc1ccc(S(=O)(=O)Nc2cnc3ccccc3n2)cc1,L929,-,EC50,Human isolate,<0.8 µg/mL
C[C@H]1c2cccc(O)c2C(O)=C2C(=O)[C@]3(O)C(O)=C(C(N)=O)C(=O)[C@@H](N(C)C)[C@@H]3[C@@H](O)[C@@H]21,HCT-8,-,EC50,-,>1 µM